This series deals with T1, M.HhaI (UniProt P05102).
T1 sequence (looked up, limits assumed): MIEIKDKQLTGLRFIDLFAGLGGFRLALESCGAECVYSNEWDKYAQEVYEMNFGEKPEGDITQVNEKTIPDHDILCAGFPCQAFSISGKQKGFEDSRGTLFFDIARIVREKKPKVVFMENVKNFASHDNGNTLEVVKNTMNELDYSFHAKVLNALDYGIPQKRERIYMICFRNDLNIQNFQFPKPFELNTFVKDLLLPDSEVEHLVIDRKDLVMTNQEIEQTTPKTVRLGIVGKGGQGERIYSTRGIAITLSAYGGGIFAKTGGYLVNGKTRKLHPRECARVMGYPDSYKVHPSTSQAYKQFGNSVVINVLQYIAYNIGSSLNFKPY
Nature of the series: inhibition of the protein. The following applies: little to no inhibition at 5 uM RNA, pUC19 substrate, purified recombinant protein.

Negatives hold for the conditions tested. Tags and fusion partners may be left off the protein sequences shown.

As for UUAAUGCUAAUCGUGAUAGGGGU [miR-155-5p], the “activity on this sequence” value is reported as “not active”.

Take GACAGUGGAGAGGGGCGGAGCGG [asCEBPα-2HPE]: for the setting “label: 5'-33P in pull-down, variant of asCEBPα-2”, the “activity on this sequence” value is given as “not active”.
